From paper PMC6166989 (2018)

Molecular target: PV-2C-ΔN C323A (human poliovirus 1 (strain Mahoney))
Experiment: SEC

PV-2C-ΔN C323A (domain or fragment)
stoichiometry N: 4
